Anti-infective test results gathered from many reports (values: NIAID ChemDB through PubChem).

All rows: tests in culture; species: Cryptococcus neoformans; endpoint: MIC

a–b is a range or a potency band. Lines come from different laboratories, so protocols vary. Blank or dashed fields: not listed here.

structure	strain or isolate	read by	value
CCOC(=O)C1CC([C@H]2O[C@@H]3OC(C)(C)O[C@@H]3[C@H]2OCc2ccccc2)=NO1			12.5 µg/mL
N=c1oc2ccccc2c2csc(N)c12	IP 90526	broth dilution	4 µg/mL
COc1cc(/C=C2\CSc3ccccc3C2=O)ccc1O	93/V		6 µg/mL
CC(=O)NC1=NN(C(C)=O)C2(CC(c3ccccc3)N(C(C)=O)C(c3ccccc3)C2C)S1			>100 µg/mL
COC(=O)C1CC([C@H]2O[C@@H]3OC(C)(C)O[C@@H]3[C@H]2OCc2ccccc2)=NO1			50 µg/mL
COc1cc(O)c2c(c1)C(=O)c1c(cc3c(c1O)-c1c(cc(C)c(C(=O)NC(C)C(=O)O)c1O)[C@H](OC1OC(C)C(N(C)C=O)C(OC4OCC(O)C(O)C4O)C1O)[C@H]3O)C2=O	IAM 4514		6.3 µg/mL
C[C@H](n1nnc(CCN2CCN(c3ccc([N+](=O)[O-])cc3)CC2)n1)[C@](O)(Cn1cncn1)c1ccc(F)cc1F	LA314		4 µg/mL
CCCCCCCCCCCCC/C=C\C1=N[C@H]1C(=O)OC	var. grubii		2 µg/mL
CCOc1ccc(/C=C2\CCc3ccccc3C2=O)cc1	Farwania		12.5 µg/mL
CO[C@H]1[C@@H](OC(=O)OCc2ccccc2)[C@H](O)[C@H](OCC23C4C=C(C(C)C)C2(C(=O)O)C(C=O)(C4)[C@@H]2CC[C@@H](C)[C@H]23)O[C@@H]1C	2867		>62 µg/mL
C[n+]1c2ccccc2cc2[nH]c3c(Br)cccc3c21.[I-]	ATCC 90113	resazurin	20 µg/mL
COc1cc(O)c2c(c1)C(=O)c1c(cc3c(c1O)-c1c(cc(C)c(C(=O)NC(C)C(=O)O)c1O)[C@H](OC1OC(C)C(N(C)CC(=O)O)C(OC4OCC(O)C(O)C4O)C1O)[C@H]3O)C2=O	IAM 4514		1.6 µg/mL
CC(=O)C1CCc2sccc2C1=O			25 µg/mL
C[C@H](n1nnnc1CCN1CCN(c2ccc([N+](=O)[O-])cc2)CC1)[C@](O)(Cn1cncn1)c1ccc(F)cc1F	LA314		4 µg/mL
C[C@H]1[C@H](O)[C@@H](C)/C=C/C=C/C=C/C=C/C=C/C=C/C=C/[C@H](O[C@@H]2O[C@H](C)[C@@H](O)[C@H](N)[C@@H]2O)C[C@@H]2O[C@](O)(C[C@@H](O)C[C@@H](O)CC[C@H](O)[C@@H](O)C[C@@H](O)CC(=O)O[C@H]1C)C[C@H](O)[C@H]2C(=O)O	ATCC 90113		2.5 µg/mL
C[C@@H](n1ncn(-c2ccc(OCC(F)(F)C(F)F)cc2)c1=O)[C@](O)(Cn1cncn1)c1ccc(F)cc1F	DUMC 123.96		0.0625 µg/mL
C/C(=C\C(=O)CCCCCCCCC(=O)O)C[C@@H]1OC[C@H](C[C@H]2O[C@H]2[C@@H](C)[C@H](C)O)[C@@H](O)[C@H]1O			250 µg/mL
CCCCCCCCCCCCC/C=C/C1=N[C@H]1C(=O)OC	var. gatti		8 µg/mL
O=c1c(N2CCOCC2)c(N2CCN(S(=O)(=O)Cc3ccccc3)CC2)cnn1-c1ccccc1	C297	broth dilution	200 µg/mL
Cn1cccc1C(Cc1ccc(Cl)cc1)n1ccnc1			150 µM
CC1(C)O[C@H]2OC(COCC(O)CNCCCCCCCCNC(O)COCC3O[C@@H]4OC(C)(C)O[C@@H]4[C@H]4OC(C)(C)O[C@@H]34)[C@@H]3OC(C)(C)O[C@@H]3[C@H]2O1			50 µg/mL
COc1cc(O)c2c(c1)C(=O)c1c(cc3c(c1O)-c1c(cc(C)c(C(=O)NCC(=O)O)c1O)[C@H](O[C@@H]1O[C@H](C)[C@H](N)[C@H](O[C@@H]4OC[C@@H](O)[C@H](O)[C@H]4O)[C@H]1O)[C@H]3O)C2=O	IAM 4514		0.8 µg/mL
CCCCCCCCCCCCCC#CC1=N[C@H]1C(=O)OC	var. grubii		4 µg/mL
C[C@@H]1CCC2(OC1)OC1CC3C4C[C@H](O)[C@H]5C[C@@H](O)CC[C@]5(C)C4CC(=O)[C@]3(C)C1[C@@H]2C	ATCC 90113		10 µg/mL
CCC(C)n1ncn(-c2ccc(N3CCN(c4ccc(OC[C@H]5CO[C@](Cn6cncn6)(c6ccc(Cl)cc6Cl)O5)cc4)CC3)cc2)c1=O	Isolate 95-103		0.25 µg/mL
OC(c1cc(-c2ccc(Cl)cc2)nc2c1ccc1ccccc12)C1CCCCN1	ATCC 90013		0.8 µg/mL
C[C@H]1[C@H](O)[C@@H](C)/C=C/C=C/C=C/C=C/C=C/C=C/C=C/[C@H](O[C@@H]2O[C@H](C)[C@@H](O)[C@H](N)[C@@H]2O)C[C@@H]2O[C@](O)(C[C@@H](O)C[C@@H](O)CC[C@H](O)[C@@H](O)C[C@@H](O)CC(=O)O[C@H]1C)C[C@H](O)[C@H]2C(=O)O		broth dilution	1.56 µg/mL
C=C1CC[C@@H]2C[C@H]1C2(C)C		agar diffusion / agar	234 µg/mL
CCC(C)CC(C)CCCCCCCCC(=O)N[C@H]1C[C@@H](O)[C@@H](O)NC(=O)[C@@H]2[C@@H](O)CCN2C(=O)[C@H]([C@H](O)CC(N)=O)NC(=O)[C@H]([C@H](O)[C@@H](O)c2ccc(O)cc2)NC(=O)[C@@H]2C[C@@H](O)CN2C(=O)[C@H]([C@@H](C)O)NC1=O	20 isolates		>8 µg/mL
CCCCCCCCCC/C=C\C1=N[C@H]1C(=O)OC	var. grubii		4–5 µg/mL
COc1ccccc1/C=C1\COc2ccc(-c3ccccc3)cc2C1=O	Farwania		50 µg/mL
O[C@](Cn1cncn1)(Cn1cnc(/C=C/c2ccc(OCC(F)(F)C(F)F)cc2)n1)c1ccc(F)cc1F	TIMM0362		0.2 µg/mL
C[C@H]1[C@H](O)[C@@H](C)/C=C/C=C/C=C/C=C/C=C/C=C/C=C/[C@H](O[C@@H]2O[C@H](C)[C@@H](O)[C@H](N)[C@@H]2O)C[C@@H]2O[C@](O)(C[C@@H](O)C[C@@H](O)CC[C@H](O)[C@@H](O)C[C@@H](O)CC(=O)O[C@H]1C)C[C@H](O)[C@H]2C(=O)O			20 µg/mL
COc1cc(O)c2c(c1)C(=O)c1c(cc3c(c1O)-c1c(cc(C)c(C(=O)NC(C)C(=O)O)c1O)[C@H](OC1OC(C)C(N(C)C(=O)CCC(=O)O)C(OC4OCC(O)C(O)C4O)C1O)[C@H]3O)C2=O	IAM 4514		>100 µg/mL
COc1cc(O)c2c(c1)C(=O)c1c(cc3c(c1O)-c1c(cc(C)c(C(=O)N[C@H](C)C(=O)O)c1O)[C@H](O[C@@H]1O[C@H](C)[C@H](O)[C@H](O[C@@H]4OC[C@@H](O)[C@H](O)[C@H]4O)[C@H]1O)[C@H]3O)C2=O	TIMM1855		1.56 µg/mL
CC[C@@H]([C@H](C)O)n1ncn(-c2ccc(N3CCN(c4ccc(OC[C@@H]5CO[C@@](Cn6cncn6)(c6ccc(F)cc6F)C5)cc4)CC3)cc2)c1=O	491 (HIV+)		0.125 µg/mL
CCCCCCC#CCCCCCC#CC(=O)O	ATCC66031		<5.8 µM
Cn1ccc(C(Cc2ccc(N)cc2)n2ccnc2)c1			300 µM
Cc1ccc2sn(NS(=O)(=O)c3ccc(N)cc3)c(=O)c2c1			>100 µg/mL
Cn1ccc(C(Cc2ccc(Cl)cc2Cl)n2ccnc2)c1			37.5 µM
COc1ccc(-c2cc(=O)c3ccc4c(ccn4C)c3o2)cc1			50 µg/mL
COc1cc(O)c2c(c1)C(=O)c1c(cc3c(c1O)-c1c(cc(C)c(C(=O)NC(C)C(=O)O)c1O)[C@H](OC1OC(C)C(N(C)C(=O)c4ccccc4)C(OC4OCC(O)C(O)C4O)C1O)[C@H]3O)C2=O	IAM 4514		>100 µg/mL
CO[C@H]1[C@@H](O)[C@H](O)[C@H](OC[C@@]23C[C@@H]4[C@H](C)CC[C@H]4[C@@]4(C=O)C[C@@H]2C=C(C(C)C)[C@@]34C(=O)O)O[C@@H]1C	MY2062		>100 µg/mL
CCc1ccc(-n2cc(C(=O)OC)c3c2C(=O)C(C)=C(C)C3=O)cc1	KCCM 50564		60 µg/mL
CO[C@@H]1[C@H]2OC(C)(C)O[C@H]2O[C@@H]1C1=NOC(Cc2ccc(O)cc2)C1			12.5 µg/mL
CCC(C)CC(C)CCCCCCCCC(=O)N[C@H]1C[C@@H](O)[C@H](NCCN)NC(=O)[C@@H]2[C@@H](O)CCN2C(=O)[C@H]([C@H](O)CCN)NC(=O)[C@H]([C@H](O)[C@@H](O)c2ccc(O)cc2)NC(=O)[C@@H]2C[C@@H](O)CN2C(=O)[C@H]([C@@H](C)O)NC1=O	C237	broth dilution	>16 µg/mL
CC(=O)NC1=NN(C(C)=O)C2(CC(c3ccccc3)N(C(C)=O)C(c3ccccc3)C2)S1			>100 µg/mL
Cc1cc(O)c2c(c1)C(=O)c1cccc(O)c1C2=O			50 µg/mL
C=C1CC[C@H]2C[C@@H]1C2(C)C		agar diffusion / agar	>20000 µg/mL
COc1cc(O)c2c(c1)C(=O)c1cc(C)cc(O)c1C2=O			50 µg/mL
OC(Cn1cncn1)(Cn1nnnc1CCN1CCN(c2cccc(C(F)(F)F)c2)CC1)c1ccc(F)cc1F	LA314		>16 µg/mL
Cn1cncc1C(=O)c1nccc2c1[nH]c1ccccc12			6 µg/mL
COC(=O)c1ccc2c(ccn2C)c1O			50 µg/mL
C[C@H]1[C@H](O)[C@@H](C)/C=C/C=C/C=C/C=C/C=C/C=C/C=C/[C@H](O[C@@H]2O[C@H](C)[C@@H](O)[C@H](N)[C@@H]2O)C[C@@H]2O[C@](O)(C[C@@H](O)C[C@@H](O)CC[C@H](O)[C@@H](O)C[C@@H](O)CC(=O)O[C@H]1C)C[C@H](O)[C@H]2C(=O)O	ATCC 32608	broth dilution	0.05 µM
Clc1ccc(CC(c2ccc(Cl)s2)n2ccnc2)cc1			1.2 µM
COc1c(-c2ccccc2)oc2c(ccc3sccc32)c1=O			12.5 µg/mL
Cn1ccc(C(Cc2ccc([N+](=O)[O-])cc2)n2ccnc2)c1			150 µM
CCCCOc1c(OC)ccc2c(Cc3ccc(C(C)C)cc3)c3[n+](cc12)CCc1cc2c(cc1-3)OCO2	H99	visual reading	4 µg/mL
OC(c1cc(-c2ccc(C(F)(F)F)cc2)nc(-c2ccc(C(F)(F)F)cc2)c1)C1CCCCN1	ATCC90112		0.4 µg/mL
C[C@H]1[C@H](O)[C@@H](C)/C=C/C=C/C=C/C=C/C=C/C=C/C=C/[C@H](O[C@@H]2O[C@H](C)[C@@H](O)[C@H](N)[C@@H]2O)C[C@@H]2O[C@](O)(C[C@@H](O)C[C@@H](O)CC[C@H](O)[C@@H](O)C[C@@H](O)CC(=O)O[C@H]1C)C[C@H](O)[C@H]2C(=O)O	901142	broth dilution	0.015 µg/mL
CCOC1CC([C@H]2O[C@@H]3OC(C)(C)O[C@@H]3[C@H]2OCc2ccccc2)=NO1			25 µg/mL
C[C@@H](N1CCN(c2ccc(-n3cnnn3)cc2)C1=O)[C@@](O)(Cn1cncn1)c1ccc(F)cc1F	TIMM1740		>16 µg/mL
COc1ccc(/C=C2\CSc3ccccc3C2=O)cc1	25		3 µg/mL
COc1cc(O)c2c(c1)C(=O)c1c(cc3c(c1O)-c1c(cc(C)c(C(=O)NC(C)C(=O)O)c1O)[C@H](OC1OC(C)C(N(C)CC(N)=O)C(OC4OCC(O)C(O)C4O)C1O)[C@H]3O)C2=O	IAM 4514		1.6 µg/mL

A second listing of 5 rows from above:

| structure | strain or isolate | read by | value |
|---|---|---|---|
| CCOc1ccc(/C=C2\CCc3ccccc3C2=O)cc1 | Farwania |  | 12.5 µg/mL |
| CC(=O)NC1=NN(C(C)=O)C2(CC(c3ccccc3)N(C(C)=O)C(c3ccccc3)C2)S1 |  |  | >100 µg/mL |
| Cn1ccc(C(Cc2ccc(Cl)cc2Cl)n2ccnc2)c1 |  |  | 37.5 µM |
| C[C@@H]1CCC2(OC1)OC1CC3C4C[C@H](O)[C@H]5C[C@@H](O)CC[C@]5(C)C4CC(=O)[C@]3(C)C1[C@@H]2C | ATCC 90113 |  | 10 µg/mL |
| COc1cc(O)c2c(c1)C(=O)c1c(cc3c(c1O)-c1c(cc(C)c(C(=O)NC(C)C(=O)O)c1O)[C@H](OC1OC(C)C(N(C)CC(N)=O)C(OC4OCC(O)C(O)C4O)C1O)[C@H]3O)C2=O | IAM 4514 |  | 1.6 µg/mL |